Drawing on ChEMBL document CHEMBL1128695, “Synthesis and antiviral activity of 8-aza analogs of chiral [2-(phosphonomethoxy) propyl]guanines” (J Med Chem, 1995), this text covers Selectivity index for one molecule.

A short description of assay [1]: Selectivity Index measured as the ratio of CC50 to that of EC50(HIV-1) values. The assay is classed as functional. Put shortly:
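HIV-1 IIIB (100 CCID50, MOI 0.01) was added to 1×10^4 MT-4 cells per well in RPMI/10% FCS with serial compound dilutions, made from a 100 mg/mL DMSO stock. After 4 days at 37 °C, viable cells were counted by MTT. The EC50 is 50% protection from virus-induced CPE. The CC50 is a 50% viability loss in mock-infected MT-4 cells, run in parallel for 4 days. SI = CC50/EC50.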

Assay [2] in a line: Selectivity Index measured as the ratio of CC50 to that of EC50(HIV-2) values. The assay is classed as functional. Put shortly:
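HIV-2 ROD (100 CCID50, MOI 0.01) infected 1×10^4 MT-4 cells per well in RPMI/10% FCS containing compound dilutions, made from a 100 mg/mL DMSO stock. After 8 days at 37 °C, MTT read viability. The EC50 gives 50% protection against CPE. The CC50 comes from parallel mock-infected MT-4 cultures by MTT over 4 days. The index is the CC50/EC50 ratio.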

For the molecule `Cc1cn([C@H]2C[C@H](N=[N+]=[N-])[C@@H](CO)O2)c(=O)[nH]c1=O` [ZIDOVUDINE], the Selectivity index in assay [1] is over 2000; in assay [2] it was over 500.
